PubChem BioAssay AID624099 – ICCB-Longwood | 2012
Aim: 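Host factors E2 relies on to silence an HPV18 LCR reporter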 (primary screen). Cell system: human C33A cervical carcinoma cells (HPV-negative) stably expressing BPV1 E2 and an HPV18 LCR luciferase reporter. Reagent: siRNA pool against human genes, 40 nM. Duration: 72 h. Measured: 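HPV18 LCR reporter light per well, converted to plate-wise z-scores that exclude control wells, and averaged over triplicate plates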. Scale: mean z-score and z-score: higher = stronger reporter signal, weaker E2 silencing. Hit rule: 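Mean z ≥ 2 together with z ≥ 2 in two or more of the three replicates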.
The whole screen tested about 21,000 reagents; this is an unselected part. Of all reagents, 497 (2.4%) are marked active. 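Higher z means weaker E2 silencing; only reporter increases were scored, and knock-downs that hurt cell survival may mask genuine repressor factors.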 Entries without a mark were called inactive.

KRT78 (GeneID 196374) → mean z-score = -0.06; z-score, replicate A = -0.16; z-score, replicate B = -0.03; z-score, replicate C = 0.02
BANP (GeneID 54971) → mean z-score = -0.25; z-score, replicate A = -0.74; z-score, replicate B = -0.23; z-score, replicate C = 0.21
LIMK1 (GeneID 3984) → mean z-score = 0.28; z-score, replicate A = 0.51; z-score, replicate B = 0.4; z-score, replicate C = -0.06
SYNCRIP (GeneID 10492) → mean z-score = -0.66; z-score, replicate A = -0.34; z-score, replicate B = -0.45; z-score, replicate C = -1.2
DNMT1 (GeneID 1786) → mean z-score = -0.03; z-score, replicate A = 0.45; z-score, replicate B = -0.12; z-score, replicate C = -0.41
OR5AP2 (GeneID 338675) → mean z-score = -0.91; z-score, replicate A = -1.18; z-score, replicate B = -1.02; z-score, replicate C = -0.53
MYBPHL (GeneID 343263) → mean z-score = 0.36; z-score, replicate A = 0.29; z-score, replicate B = 0.79; z-score, replicate C = 0.02
SAA2 (GeneID 6289) → mean z-score = -0.12; z-score, replicate A = -0.41; z-score, replicate B = 0.07; z-score, replicate C = -0.01
EHBP1 (GeneID 23301) → mean z-score = -1.29; z-score, replicate A = -1.55; z-score, replicate B = -1.33; z-score, replicate C = -0.99
LCE4A (GeneID 199834) → mean z-score = 0.04; z-score, replicate A = -0.1; z-score, replicate B = 0.18; z-score, replicate C = 0.03
ARNT (GeneID 405) → mean z-score = 0.38; z-score, replicate A = 0.23; z-score, replicate B = 0.48; z-score, replicate C = 0.43
NOXO1 (GeneID 124056) → mean z-score = -0.75; z-score, replicate A = -0.8; z-score, replicate B = -0.74; z-score, replicate C = -0.69
SPTB (GeneID 6710) → mean z-score = -0.11; z-score, replicate A = -0.36; z-score, replicate B = -0.19; z-score, replicate C = 0.21
VPS13D (GeneID 55187) → mean z-score = 0.69; z-score, replicate A = 0.89; z-score, replicate B = 0.79; z-score, replicate C = 0.39

Part of the list above, set out differently.
Gene	mean z-score	z-score, replicate A	z-score, replicate B	z-score, replicate C
OR5AP2 (GeneID 338675)	-0.91	-1.18	-1.02	-0.53
MYBPHL (GeneID 343263)	0.36	0.29	0.79	0.02
